## HIV-1 5' UTR: effect of mutations on RNA dimer formation

Reference: Ye et al. 2022, doi:10.1038/s41594-022-00746-2.

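Mutant RNA libraries with 1G, 2G or 3G starts, with or without cap, were folded at 37 °C for 30 min. High salt was 300 mM KCl and 5 mM MgCl2, low salt 40 mM KCl and 0.1 mM MgCl2; monomer and dimer were parted on a native gel. Mutation frequencies in the two bands give Kdimer.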

Sequence of the HIV-1 NL4-3 5' RNA, positions 1 to 437, as numbered in the source:
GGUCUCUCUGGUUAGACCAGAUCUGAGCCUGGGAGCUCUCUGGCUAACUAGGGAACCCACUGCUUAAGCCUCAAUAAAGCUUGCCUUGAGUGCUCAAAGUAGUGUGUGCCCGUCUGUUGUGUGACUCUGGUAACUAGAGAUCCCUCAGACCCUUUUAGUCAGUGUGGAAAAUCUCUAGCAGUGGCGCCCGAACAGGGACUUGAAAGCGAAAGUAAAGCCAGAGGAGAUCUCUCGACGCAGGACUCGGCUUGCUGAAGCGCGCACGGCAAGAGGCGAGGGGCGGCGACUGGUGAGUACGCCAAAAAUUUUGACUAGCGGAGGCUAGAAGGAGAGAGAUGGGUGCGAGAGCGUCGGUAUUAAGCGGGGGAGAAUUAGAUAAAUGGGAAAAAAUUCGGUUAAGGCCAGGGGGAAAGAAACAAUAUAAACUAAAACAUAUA

Values are log2 Kdimer, the median over the changes at each position: higher means that changes there hinder dimer formation, below 0 that they favour it.
Sample: 1G capped high-salt.
One numbering serves 1G, 2G and 3G.
A position is written with its base where known.

position,domain,1G capped high-salt
G25,TAR,-0.34
G31,TAR,-0.25
C38,TAR,-0.01
U49,TAR,-0.12
A54,TAR,-0.52
A59,PolyA,0.48
U65,PolyA,0.19
A67,PolyA,0.12
A77,PolyA,-0.05
U100,PolyA,0.16
G108,U5,-0.14
G116,none,0.27
U117,none,0.00
U126,PAS,0.28
U128,PAS,-0.04
G129,PAS,0.01
A136,PBS,-0.14
U153,PBS,0.03
U154,PBS,0.02
C160,PBS,-0.50
G167,PBS,-0.14
U182,PBS,0.24
C188,PBS,0.28
C189,PBS,0.10
A192,PBS,0.07
U200,PBS,0.19
A204,PBS,0.21
C207,PBS,-0.53
A214,PBS,-0.04
G226,none,-0.64
G234,none,0.95
G237,none,1.11
U253,SL1,1.85
C262,SL1,3.23
C267,SL1,3.50
A269,SL1,1.62
A271,SL1,-0.48
C284,SL2,0.37
C287,SL2,-0.32
G292,SL2,-0.03
G298,SL2,-0.64
A305,none,-0.15
U313,SL3,0.79
C316,SL3,-0.02
G320,SL3,0.05
G328,none,-0.02
G329,none,0.02
A334,AUG,0.11
A347,none,0.36
G348,none,-0.16
U351,none,0.00
U355,none,0.03
A370,none,0.06
G375,none,0.10
A376,none,0.06
G382,none,0.19
G384,none,-0.41
A385,none,-0.09
A388,none,0.08
U391,none,0.02
G405,none,-0.12
G413,none,0.06
A421,none,0.15
U422,none,-0.04
A424,none,-0.04
A425,none,-0.05
442,none,-0.15
450,none,0.13
471,none,0.06
497,none,0.04
506,none,0.06

The last 9 entries again:

* A421: 0.15
* U422: -0.04
* A424: -0.04
* A425: -0.05
* position 442: -0.15
* position 450: 0.13
* position 471: 0.06
* position 497: 0.04
* position 506: 0.06

Bases beyond 437 are not listed in the source.